According to PubChem BioAssay AID2629 (Broad Institute, 2010):
The entries are a selection whose mix differs from that of the whole data set. Active and inactive are the calls of the source. Cut-off read from the data, not from the text of the source: active = inhibition mostly above about 10% (no sharp cut-off); inactive = mostly below about 6.7%.

Amino acid sequences for entries named in this document (tags omitted).
UniProt Q9QR71, whole entry: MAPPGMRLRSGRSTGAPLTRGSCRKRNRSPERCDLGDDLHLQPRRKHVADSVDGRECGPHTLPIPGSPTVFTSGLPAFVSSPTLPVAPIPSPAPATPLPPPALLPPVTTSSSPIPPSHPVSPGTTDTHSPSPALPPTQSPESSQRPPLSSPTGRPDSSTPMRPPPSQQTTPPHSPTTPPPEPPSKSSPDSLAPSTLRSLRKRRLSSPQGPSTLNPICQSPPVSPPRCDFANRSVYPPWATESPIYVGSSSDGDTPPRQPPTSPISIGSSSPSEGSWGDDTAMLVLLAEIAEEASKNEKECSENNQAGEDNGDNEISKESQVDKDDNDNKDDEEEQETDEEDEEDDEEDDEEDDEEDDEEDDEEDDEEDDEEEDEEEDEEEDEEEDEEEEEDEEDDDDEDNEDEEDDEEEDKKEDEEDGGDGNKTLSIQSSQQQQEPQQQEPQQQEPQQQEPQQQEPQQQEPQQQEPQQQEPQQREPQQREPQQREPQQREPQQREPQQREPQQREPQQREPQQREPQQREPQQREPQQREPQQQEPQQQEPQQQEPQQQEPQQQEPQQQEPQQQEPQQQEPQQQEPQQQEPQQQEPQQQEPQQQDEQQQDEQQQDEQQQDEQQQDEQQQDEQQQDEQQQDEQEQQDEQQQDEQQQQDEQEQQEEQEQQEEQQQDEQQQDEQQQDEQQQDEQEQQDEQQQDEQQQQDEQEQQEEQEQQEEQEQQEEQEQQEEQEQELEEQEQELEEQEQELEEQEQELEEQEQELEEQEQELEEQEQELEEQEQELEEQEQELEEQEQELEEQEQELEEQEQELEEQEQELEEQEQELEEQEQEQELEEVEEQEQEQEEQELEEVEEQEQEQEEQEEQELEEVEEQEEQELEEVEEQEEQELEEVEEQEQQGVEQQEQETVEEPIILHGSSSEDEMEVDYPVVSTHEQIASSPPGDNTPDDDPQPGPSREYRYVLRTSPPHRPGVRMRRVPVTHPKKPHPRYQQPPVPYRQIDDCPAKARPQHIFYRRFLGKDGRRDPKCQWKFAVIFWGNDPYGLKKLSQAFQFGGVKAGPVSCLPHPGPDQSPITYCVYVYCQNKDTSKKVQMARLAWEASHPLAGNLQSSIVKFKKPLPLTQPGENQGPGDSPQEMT

What follows are molecules tested against Protein LANA1 (Human herpesvirus 8 type P (isolate GK18)) (UniProt Q9QR71) (assay: blockers of LANA interaction with H2A/H2B – biochemical, FP readout, HTS, primary screen (AID 2629)). Conditions: cell-free LANA-H2A/H2B peptide, fluorescence polarization; stronger effect = higher value; concentration not given here.

| SMILES | inhibition |
| --- | --- |
| CCOc1ccc(C)cc1CN(CCCl)CCCl | inactive: -5.97% |
| O=C(NCC1(N2CCCCC2)CCCCC1)c1ccc(F)cc1 | inactive: -6.24% |
| CCOC(=O)N1CCC(Nc2ccc(F)cc2)CC1 | inactive: 14.9% |
| COc1ccc(NC2CCN(CCc3ccccc3)CC2)c(OC)c1 | inactive: 5.68% |
| CCOC(=O)N1CCC(Nc2cccc(C)c2)CC1 | inactive: -2.8% |
| COc1cc(C(=O)NCC2(N(C)C)CCCCC2)ccc1OC(F)F | inactive: 2.58% |
| Cc1ccc(OCC(C)C)c(CN(CCCl)CCCl)c1 | inactive: -2.47% |
| O=C(NCC1(N2CCCCC2)CCCCC1)c1ccc(=O)[nH]c1 | inactive: 0.764% |
| O=C(NCC1(N2CCCCC2)CCCCC1)c1cccs1 | inactive: 0.606% |
| COc1ccc(C(=O)NCC2(N3CCCCC3)CCCCC2)cc1 | inactive: 3.22% |
| COc1ccc(C(=O)NCC2(N3CCCCC3)CCCCC2)c(OC)c1OC | inactive: -2.93% |
| CC(C)(C)OC(=O)N1CCC(N(C(=O)c2ccccc2)c2ccc(F)cc2)CC1 | inactive: 0.426% |
| CSc1ccccc1C(=O)NCC1(N2CCCCC2)CCCCC1 | inactive: 2.38% |
| O=C(NCC1(N2CCOCC2)CCCCC1)c1cc2ccccc2o1 | inactive: 1.75% |
| O=C(NCC1(N2CCCCC2)CCCCC1)c1ccc(Cl)nc1 | inactive: -4.12% |
| Cc1cc(C)cc(N(C(=O)c2ccccc2)C2CCN(C(=O)OC(C)(C)C)CC2)c1 | inactive: -3.52% |
| CCOC(=O)N1CCC(Nc2ccc(OC)cc2)CC1 | inactive: -6.73% |
| N#CC1(Nc2ccccc2)CCN(Cc2ccccc2)CC1 | inactive: -3.75% |
| O=C(NCC1(N2CCCCC2)CCCCC1)c1ccc(Cl)s1 | inactive: 6.69% |
| O=C(OC1CN2CCC1CC2)C1c2ccccc2Oc2ccccc21 (stereo unspecified) | inactive: -4.49% |
| COc1ccc(Cl)cc1C(=O)NCC1(N2CCOCC2)CCCCC1 | inactive: 3.48% |
| COc1ccc(CN(CCCl)CCCl)cc1Cl | inactive: 4.42% |

| SMILES | inhibition |
| --- | --- |
| CN(C)c1cccc(C(=O)NCC2(N3CCCCC3)CCCCC2)c1 | inactive: -3.46% |
| CC(C)c1ccc(NC2CCN(C(=O)OC(C)(C)C)CC2)cc1 | inactive: 0.702% |
| COc1cc(OC)c(C(=O)NCC2(N(C)C)CCCCC2)cc1OC | inactive: 1.15% |
| O=C(NCC1(N2CCOCC2)CCCCC1)c1cc(F)c(F)cc1Cl | inactive: 0.681% |
| CN1CCC(Nc2cccc(F)c2)CC1 | inactive: -1.67% |
| O=C(NCC1(N2CCCCC2)CCCCC1)c1cncc(Br)c1 | inactive: -9.05% |
| CCCOc1ccc(C(=O)NCC2(N(C)C)CCCCC2)cc1OC | inactive: 1.08% |
| O=C(NCC1(N2CCCCC2)CCCCC1)c1ccc(OC(F)F)cc1 | inactive: -2.48% |
| O=C(NCC1(N2CCCCC2)CCCCC1)c1cccc([N+](=O)[O-])c1 | inactive: 4.78% |
| CCN1CCC(Nc2ccc(Cl)cc2)CC1 | inactive: 0.676% |
| N#CC1(Nc2ccccc2)CCN(CCc2ccccc2)CC1 | inactive: -4.81% |
| O=C(NCC1(N2CCCCC2)CCCCC1)c1cccc(C(F)(F)F)c1 | inactive: 3.19% |
| COc1ccc(NC2CCN(C(=O)OC(C)(C)C)CC2)cc1 | inactive: 3.26% |
| CN1CCN(CCOC(=O)C(O)(c2ccccc2)c2ccccc2)CC1 | inactive: 1.17% |
| O=C(NCC1(N2CCOCC2)CCCCC1)c1cc(=O)[nH]c2ccccc12 | inactive: -0.374% |
| COc1cc(C(=O)NCC2(N3CCCCC3)CCCCC2)ccc1OC(F)F | inactive: 1.13% |
| CC(C)(C)OC(=O)N1CCC(N(C(=O)c2ccccc2)c2ccc(Cl)cc2)CC1 | inactive: -0.651% |
| N#Cc1ccc(C(=O)NCC2(N3CCCCC3)CCCCC2)cc1 | inactive: 0.544% |
| c1ccc(CN2CCC(Nc3ccccc3)CC2)cc1 | inactive: 4.56% |
| CCCN1CCC(Nc2cc(OC)cc(OC)c2)CC1 | inactive: 2.1% |
| CN(C)C1(CNC(=O)c2cccc(C#N)c2)CCCCC1 | inactive: -3.48% |
| O=C(NCC1(N2CCOCC2)CCCCC1)c1cc(Br)ccc1Cl | inactive: 5.94% |

| SMILES | inhibition |
| --- | --- |
| COc1cc(C(=O)NCC2(N3CCOCC3)CCCCC2)cc(OC)c1C | inactive: -0.793% |
| COc1ccc(C(=O)NCC2(N3CCOCC3)CCCCC2)cc1OC | inactive: -4.48% |
| N/C(=N\O)c1c(N)no[n+]1[O-] | inactive: -5.45% |
| CCOC(=O)N1CCC(Nc2ccc(C)cc2)CC1 | inactive: -1.71% |
| CCc1cc(C(=O)NCC2(N3CCCCC3)CCCCC2)sc1C | inactive: -2.24% |
| O=C(OC1CN2CCC1CC2)C1c2ccccc2C=Cc2ccccc21 (stereo unspecified) | inactive: 4.27% |
| CCOc1ncccc1C(=O)NCC1(N2CCOCC2)CCCCC1 | inactive: -5.39% |
| CN1CCC(Nc2ccc(F)c(Cl)c2)CC1 | inactive: -3.26% |
| CCCOc1ccc(C(=O)NCC2(N(C)C)CCCCC2)cc1 | inactive: -0.0383% |
| CC(C)(C)OC(=O)N1CCC(Nc2ccccc2)CC1 | inactive: -3.54% |
| O=C(O)C1(Nc2ccccc2)CCN(Cc2ccccc2)CC1 | inactive: -1.25% |
| CCC(CO)(C(=O)OC1CN2CCC1CC2)c1ccccc1 (stereo unspecified) | inactive: 3.26% |
| COc1cccc(C(=O)N(c2cc(C)cc(C)c2)C2CCN(C(=O)OC(C)(C)C)CC2)c1 | inactive: 1.55% |
| COc1cc(OC)cc(C(=O)NCC2(N3CCOCC3)CCCCC2)c1 | inactive: 2.6% |
| CCCOc1ccc(C)cc1CN(CCCl)CCCl | inactive: -1.97% |
| CN1CCC(Nc2ccc(Cl)cc2)CC1 | inactive: 7.82% |
| COc1cc(OC)cc(C(=O)NCC2(N3CCCCC3)CCCCC2)c1 | inactive: -5.87% |
| Cc1ccc(C(=O)NCC2(N3CCCCC3)CCCCC2)o1 | inactive: -2.47% |
| Fc1ccccc1NC1CCN(Cc2ccccc2)CC1 | inactive: -1.03% |
| CCN1CCC(Nc2cccc(F)c2)CC1 | inactive: 3.71% |
| O=C(NCC1(N2CCCCC2)CCCCC1)c1ccco1 | inactive: -3.17% |
| CN(C)c1ccc(C(=O)NCC2(N3CCCCC3)CCCCC2)cc1 | inactive: 2.35% |
